Measured values from several laboratories, pooled; numbers as filed in NIAID ChemDB.

Shared fields: target-level tests; agent: Herpes simplex virus 1; target: Thymidine kinase

Rows are shuffled and stem from different studies. Blank or dashed fields: not listed here. ICn is the concentration giving n% inhibition.

| structure | strain | endpoint | value |
|---|---|---|---|
| CCc1cn([C@H]2C[C@H](O)[C@@H](CNC(=O)CCc3ccccc3)O2)c(=O)[nH]c1=O |  | IC50 | 1.7 µM |
| Nc1nc(Cl)c2ncn([C@@H](CCO)SCCO)c2n1 |  | Ki | 667 µM |
| O=c1[nH]c(=O)n([C@@H]2O[C@H](CO)[C@@H](O)[C@@H]2F)cc1/C=C/I | F | IC50 | <200 µM |
| Nc1nc2c(ncn2CC[C@@H](O)CO)c(=O)[nH]1 |  | Ki | 1.47 µM |
| CC(C)CC(=O)NC[C@H]1O[C@@H](n2cc(I)c(=O)[nH]c2=O)C[C@@H]1O |  | IC50 | 68 µM |
| C#C[C@H]1O[C@@H](n2cc(C)c(=O)[nH]c2=O)C[C@@H]1O | KOS | IC50 | 6 µM |
| Cc1cn([C@H]2C[C@H](O)[C@@H](CNS(=O)(=O)c3ccc(NS(=O)(=O)O)cc3)O2)c(=O)[nH]c1=O |  | IC50 | >200 µM |
| Nc1nc(=O)n([C@@H]2O[C@H](CO)[C@@H](O)[C@@H]2F)cc1/C=C/Br | F | IC50 | >200 µM |
| Nc1nc2c(ncn2CC[C@@H](O)CO)c(=O)[nH]1 | C42 | Ki | 1.5 µM |
| COC(=O)CC(SCCO)n1cc(C)c(=O)[nH]c1=O |  | Ki | 406 µM |
| CCc1cn([C@H]2C[C@H](O)[C@@H](COS(C)(=O)=O)O2)c(=O)[nH]c1=O |  | IC50 | 8.1 µM |
| CCOC(=O)/C=C/c1cn([C@@H]2O[C@H](CO)[C@@H](O)[C@@H]2F)c(=O)nc1N | F | IC50 | >200 µM |
| C[C@@H](O)Cn1cnc2c(N)ncnc21 |  | Ki | 5300 µM |
| CC(C)C(=O)NC[C@H]1O[C@@H](n2cc(I)c(=O)[nH]c2=O)C[C@@H]1O |  | IC50 | 55 µM |
| CCCCCCCCOP(=O)(O)OC[C@H]1O[C@@H](n2cc(CC)c(=O)[nH]c2=O)C[C@@H]1O |  | IC50 | 9.2 µM |
| Cc1cn(C/C=C/COC(=O)CC(C)(C)C)c(=O)[nH]c1=O |  | IC50 | 28 µM |
| C[C@@H](O)Cn1cnc2c(Cl)ncnc21 |  | Ki | 2100 µM |
| CCC(=O)NC[C@H]1O[C@@H](n2cc(I)c(=O)[nH]c2=O)C[C@@H]1O |  | IC50 | 159 µM |
| Nc1nc2c(ncn2[C@@H](CCO)SCCO)c(=O)[nH]1 |  | Ki | 602 µM |
| CCc1cn(C/C=C\COC(c2ccccc2)(c2ccccc2)c2ccccc2)c(=O)[nH]c1=O |  | IC50 | 20 µM |
| C[C@@H](O)Cn1cnc2c(CS)ncnc21 |  | Ki | 2400 µM |
| O=c1[nH]c(=O)n([C@@H]2O[C@H](CO)[C@@H](O)[C@@H]2F)cc1/C=C/Cl | F | IC50 | <200 µM |
| Nc1nc2c(ncn2CCCC(CO)CO)c(=O)[nH]1 | C42 | Ki | 1.5 µM |
| CS(=O)(=O)NC[C@H]1O[C@@H](n2cc(I)c(=O)[nH]c2=O)C[C@@H]1O |  | IC50 | >200 µM |
| CCc1cn([C@H]2C[C@H](O)[C@@H](COP(=O)(O)OC(C)C)O2)c(=O)[nH]c1=O |  | IC50 | 208 µM |
| Cc1cn([C@@H]2O[C@H](CO)[C@@H](O)[C@@H]2F)c(=O)nc1N | F | IC50 | >200 µM |
| C[C@@H](O)Cn1cnc2c(=O)[nH]cnc21 |  | Ki | 3700 µM |
| C=Cc1cn([C@@H]2O[C@H](CO)[C@@H](O)[C@@H]2F)c(=O)nc1N | F | IC50 | >200 µM |
| O=c1[nH]c(=O)n([C@H]2C[C@H](O)[C@@H](CO)O2)cc1C(F)(F)F |  | IC50 | 0.25 µM |

A second listing of 2 rows from above:

structure,strain,endpoint,value
C#C[C@H]1O[C@@H](n2cc(C)c(=O)[nH]c2=O)C[C@@H]1O,KOS,IC50,6 µM
COC(=O)CC(SCCO)n1cc(C)c(=O)[nH]c1=O,,Ki,406 µM